The source of these data is PubChem BioAssay AID652162 (Broad Institute, 2013).

Molecules are shown by their SMILES. The list shows a part of the results, in another mix than the full data. Some salts and complexes are drawn in separate pieces, as the source files them; their charges need not balance. Active and inactive are the calls of the source. Cut-off read from the data, not from the text of the source: active = inhibition above about 10%; inactive = the rest.

In the assay the target is Toxin B (Clostridioides difficile) (UniProt P18177). Kind of assay: TcdB glycohydrolase inhibitors, primary screen, biochemical, single point, plate reader (AID 652162). To be noted: TcdB glycohydrolase enzymatic assay, at 9.99 µM, stronger effect = higher value.
Broadly, the inhibition is the change of the read-out against control, counted positive when it falls. `CCOC(=O)c1ccc(NP(C)(=O)Oc2ccc(Cl)cc2)cc1` (stereo not drawn): the inhibition was inactive: -0.099%.
The same measure for `Nc1ccc2c(ccc3cccnc32)n1.O=[N+]([O-])c1cc([N+](=O)[O-])c(O)c([N+](=O)[O-])c1`: inactive: -2.86%; for `CN(C)C(=O)c1c([N+](=O)[O-])cc([N+](=O)[O-])cc1[N+](=O)[O-]`: inactive: 1.38%.
In the case of `COc1ccccc1OP(C)(=O)Nc1ccccc1Br` (stereo not drawn) it was inactive: 2.82%.
In the case of `CCc1ccc(OP(C)(=O)Nc2cccnc2)cc1` (stereo not drawn) it was inactive: 0.712%.
For `O=C(OCCCN1CCCC1)C(O)(c1ccccc1)C1CCCCC1` (stereo not drawn), the inhibition is inactive: 0.434%.
Take `O=[N+]([O-])c1cc([N+](=O)[O-])c(Nc2ccccn2)c([N+](=O)[O-])c1`: the inhibition was inactive: -0.027%.
The same measure for `COc1ccccc1OP(C)(=O)Nc1ccc(Br)cc1` (stereo not drawn): inactive: 0.755%.
Consider `CP(=O)(OCCOc1ccccc1)OCCOc1ccccc1`, for which the inhibition is inactive: 4.54%.
The same measure for `CP(=O)(Nc1ccc(Cl)cc1Cl)Oc1ccccc1` (stereo not drawn): inactive: -0.402%; for `CCCCCCCCCCCCCCCC1C[N+](C)(C)CCOP(C)(=O)O1` (stereo not drawn): inactive: 1.08%.
On to `O=C1C(O)=C([N+](=O)[O-])C(=O)C(O)=C1[N+](=O)[O-]`, for which the inhibition is inactive: 1.08%.
Consider `Cc1cc(C)cc(OP(C)(=O)Nc2cccc(C(F)(F)F)c2)c1` (stereo not drawn), for which the inhibition was inactive: 2.17%.
In the case of `O=[N+]([O-])c1cc([N+](=O)[O-])c(OC2CCCCC2O)c([N+](=O)[O-])c1` (stereo not drawn) it was inactive: 1.1%; in that of `CCCCCOc1ccc(NP(C)(=O)Oc2ccc(Cl)cc2Cl)cc1` (stereo not drawn), inactive: 0.44%.
In the case of `Cc1c([N+](=O)[O-])cc([N+](=O)[O-])c(Br)c1[N+](=O)[O-]` it was inactive: -2%; in that of `COc1ccc(OP(C)(=O)Nc2ccc(SC(F)(F)F)cc2)cc1` (stereo not drawn), inactive: 3.72%; in that of `CCN(CC)CCCNc1ccccc1[N+](=O)[O-].O=[N+]([O-])c1cc([N+](=O)[O-])c(O)c([N+](=O)[O-])c1`, inactive: -0.162%.
In the case of `COc1ccc2c(c1O)-c1c(O)c(OC)cc3c1[C@H](C2)[N+](C)(C)CC3.O=[N+]([O-])c1cc([N+](=O)[O-])c([O-])c([N+](=O)[O-])c1[O-]` it was inactive: -9.38%; in that of `O=C(OCCN1CCN(CCOCc2ccccc2)CC1)C(O)(c1ccccc1)c1ccccc1`, inactive: 0.951%.
Consider `O=C(OC1CN2CCC1CC2)c1ccc([N+](=O)[O-])cc1` (stereo not drawn), for which the inhibition was inactive: -0.046%.
As for `CC(C)c1ccc(OP(C)(=O)Nc2ccc(SC(F)(F)F)cc2)cc1` (stereo not drawn), the inhibition is inactive: 0.851%.
For `CP(=O)(Nc1ccccc1F)Oc1ccccc1` (stereo not drawn), the inhibition was inactive: 1.03%.
The same measure for `O=[N+]([O-])c1cc([N+](=O)[O-])c(Nc2ccc(Cl)cc2)c([N+](=O)[O-])c1`: inactive: 0.887%.
In the case of `O=[N+]([O-])c1cc([N+](=O)[O-])c(C(F)(F)F)c([N+](=O)[O-])c1O` it was inactive: -1.19%.
The same measure for `CCOP(=O)(CC)OCC`: inactive: -0.737%.
For the molecule `CP(=O)(Nc1ccc(SC(F)(F)F)cc1)Oc1ccc(F)cc1` (stereo not drawn), the inhibition is inactive: 2.4%.
The same measure for `Cc1c(C(c2ccc3c(c2)OCO3)c2c(C)n(C)n(-c3ccccc3)c2=O)c(=O)n(-c2ccccc2)n1C.O=[N+]([O-])c1cc([N+](=O)[O-])c(O)c([N+](=O)[O-])c1`: inactive: 1%; for `O=[N+]([O-])c1cc([N+](=O)[O-])c(NCC2CCS(=O)(=O)C2)c([N+](=O)[O-])c1` (stereo not drawn): inactive: 1.15%; for `Cc1cc(-c2cccc3ccccc23)c(C)cn1.O=[N+]([O-])c1cc([N+](=O)[O-])c(O)c([N+](=O)[O-])c1`: inactive: 2.73%.
In the case of `O=[N+]([O-])c1ccc(OP2(=O)COCCO2)cc1` (stereo not drawn) it was inactive: 0.77%; in that of `COc1ccc(NP(C)(=O)Oc2ccccc2OC)cc1` (stereo not drawn), inactive: 0.803%; in that of `CCCOc1ccc(NP(C)(=O)Oc2ccc(Cl)cc2)cc1` (stereo not drawn), inactive: 1.11%.
In the case of `COc1ccc(-c2ccccn2)cc1.O=[N+]([O-])c1cc([N+](=O)[O-])c(O)c([N+](=O)[O-])c1` it was inactive: -2.01%; in that of `CN1CCCCC1COC(=O)C1(O)c2ccccc2CCc2ccccc21` (stereo not drawn), inactive: 0.976%.
Turning to `O=[N+]([O-])c1cc([N+](=O)[O-])c(Nc2nnnn2CCO)c([N+](=O)[O-])c1`, the inhibition is inactive: -0.134%.
In the case of `CCOC(=O)C(CC)C1=NC(C)(C)Cc2ccccc21.O=[N+]([O-])c1cc([N+](=O)[O-])c(O)c([N+](=O)[O-])c1` (stereo not drawn) it was inactive: -0.958%.
On to `O=[N+]([O-])c1cc([N+](=O)[O-])c(-c2cnn(-c3ccccc3)c2)c([N+](=O)[O-])c1`, for which the inhibition was inactive: 1.02%.
The same measure for `CN(Cc1cccnc1)C(=O)COc1ccc(Cl)c(Cl)c1.O=[N+]([O-])c1cc([N+](=O)[O-])c(O)c([N+](=O)[O-])c1`: inactive: -1.84%; for `O=[N+]([O-])c1cc([N+](=O)[O-])c(-n2nnc3ccccc32)c([N+](=O)[O-])c1`: inactive: 2.05%.
In the case of `CP(=O)(Nc1cccc(Br)c1)Oc1ccccc1` (stereo not drawn) it was inactive: 1%; in that of `Cc1cc(C)cc(OP(C)(=O)Nc2ccccn2)c1` (stereo not drawn), inactive: 1.52%; in that of `Cc1cc(C)cc(OP(C)(=O)Nc2ccc(C)cc2C)c1` (stereo not drawn), inactive: -2.62%.
Consider `CCOC(=O)c1ccc(NP(C)(=O)Oc2cc(C)cc(C)c2)cc1` (stereo not drawn), for which the inhibition was inactive: 1.04%.
On to `COc1ccccc1OP(C)(=O)Nc1cccc(Br)c1` (stereo not drawn), for which the inhibition is inactive: 0.421%.
The same measure for `O=C(O)c1cccc(Nc2c([N+](=O)[O-])cc([N+](=O)[O-])cc2[N+](=O)[O-])c1`: inactive: -0.486%; for `COc1ccccc1OP(C)(=O)Nc1cc(Cl)ccc1C` (stereo not drawn): inactive: 0.918%.
The same measure for `Cc1cc(C)cc(OP(C)(N)=O)c1` (stereo not drawn): inactive: 1.05%.
Consider `CC(C)(C)c1ccc(OP(C)(=O)Nc2ccc(SC(F)(F)F)cc2)cc1` (stereo not drawn), for which the inhibition was inactive: 0.76%.
As to `Cc1cccc(C)c1OP(C)(N)=O` (stereo not drawn), the inhibition was inactive: 1.01%.
The same measure for `O=[N+]([O-])c1ccc2c(c1)C=Nc1ccccc1O2`: inactive: 7.35%.
Turning to `O=[N+]([O-])c1cc([N+](=O)[O-])c(Nc2cccnc2)c([N+](=O)[O-])c1`, the inhibition was inactive: 0.748%.
In the case of `COc1ccccc1-c1ccccn1.O=[N+]([O-])c1cc([N+](=O)[O-])c(O)c([N+](=O)[O-])c1` it was inactive: -1.91%; in that of `CCN(CC)CCCOC(=O)C(O)(c1ccccc1)c1ccccc1`, inactive: 0.99%.
The same measure for `CP(=O)(Nc1ccccn1)Oc1ccc(Cl)cc1` (stereo not drawn): inactive: 1.57%; for `CCOC(=O)c1ccc(NP(C)(=O)Oc2ccc(OC)cc2)cc1` (stereo not drawn): inactive: 0.564%; for `O=[N+]([O-])c1cc([N+](=O)[O-])c(O)c([N+](=O)[O-])c1.c1ccc(Oc2ccncc2)cc1`: inactive: -1.36%.
Regarding `CCc1ccc(OP(C)(=O)N2CCN(c3ccc([N+](=O)[O-])cc3)CC2)cc1` (stereo not drawn), the inhibition was inactive: -0.382%.
`CP(=O)(NC(=O)Nc1ccccc1)Oc1ccccc1` (stereo not drawn): the inhibition is inactive: 0.345%.
In the case of `CP(=O)(Nc1ccc(SC(F)(F)F)cc1)Oc1ccc(Cl)cc1` (stereo not drawn), the inhibition is inactive: 0.621%.
The same measure for `CP(=O)(Oc1ccccc1)OC(c1ccccc1)C(F)(F)F` (stereo not drawn): inactive: 0.655%; for `COc1ccccc1OP(C)(=O)Nc1ccccc1` (stereo not drawn): inactive: 0.725%; for `CP(=O)(Nc1ccccc1Br)Oc1ccccc1` (stereo not drawn): inactive: 4.67%.
